From patent EP1085908B1 come the findings set out here.

In assay [1] the target is Recombinant gp120 from HIV-1 MN strain (HIV-1 MN strain) (UniProt P05877). Briefly: SPR (BIAcore), gp120 MN coupled to CM5 chip, immunotoxin in solution.
Assay [2] has the same target. Briefly: SPR (BIAcore), gp120 MN coupled to CM5 chip, KD = kdiss/kass.
Assay [3] has as its target HIV-1 envelope glycoprotein (Env) expressed on ENV15 cells (HIV-1). The experiment in a line: cell-based or functional assay.
Assay [4] has as its target HIV-1 Env expressed on chronically infected 8E5 lymphocyte cells (HIV-1). Briefly: cell-based or functional assay.

For “3B3(Fv)-PE38 immunotoxin (from UniProt P11439 278-389; P11439 406-638) (scFv)”, in assay [1], the off-rate (koff) came to 0.00703 s⁻¹ and the kon was 192000 M⁻¹ s⁻¹. Also, in assay [2], the Kd was 37 nM. The substance also displayed an IC50, ng/ml (inhibition of 3H-Leu incorporation into cellular protein, 20 hrs) in assay [3] of 2.5 ng/mL. In assay [4], this substance returned an IC50, ng/ml (WST-1 cell viability, 5 days) of 2.1 ng/mL and a fold more active than CD4-PE40 (cytotoxicity on 8E5 cells) of 40 fold.
